Compound potency records, mixed from different reports. Data source: NIAID ChemDB in PubChem.

Shared fields: growth or infection tests; species: Hepatitis C virus; cells: Huh7; measure: EC50

ECn: concentration that inhibits the pathogen or its effect by n%.

structure | strain or isolate | read by | value
C=CC1CC1(NC(=O)[C@@H]1C[C@@H](OC(=O)Nc2cc(C)nn2-c2ccccc2)CN1C(=O)[C@@H](NC(=O)OC(C)(C)C)C(C)(C)C)C(=O)NS(=O)(=O)C1CC1 | 1b | replicon | >10 µM
CCCN1N=C(N)c2cn(C3(C)O[C@H](CO)[C@@H](O)[C@H]3O)c3ncnc1c23 | - | - | 100 µM
OCc1nnc(-c2ccc(N3CC(Oc4ccccc4C(F)(F)F)C3)nn2)o1 | GT1a | PCR | 0.0022 µM
C=CC1CC1(NC(=O)[C@@H]1C[C@@H](OC(=O)Nc2ccccc2C(=O)OC(C)C)CN1C(=O)[C@@H](NC(=O)OC(C)(C)C)C(C)(C)C)C(=O)NS(=O)(=O)C1CC1 | 1b | replicon | 0.1–1 µM
COc1cc(C(=O)N2[C@@H](c3ncc(C)s3)[C@@H](c3cnccn3)C[C@@]2(Cn2cccn2)C(=O)O)ccc1C(C)(C)C | genotype 1b | replicon | <0.1 µM
C=CC1CC1(NC(=O)[C@@H]1C[C@@H](OC(=O)Nc2cc(C(C)=O)ccc2N2CCCCC2)CN1C(=O)[C@@H](NC(=O)OC(C)(C)C)C(C)(C)C)C(=O)NS(=O)(=O)C1CC1 | 1b | replicon | <0.1 µM
C[C@@H](NC(=O)OCc1ccccc1)C(=O)Nc1ccc(C2SC(=Nc3cccc(F)c3)N(CCc3cccs3)C2=O)cc1 | - | replicon | 0.1–1 µM
COc1cc(C(=O)N2[C@@H](c3nccs3)[C@@H](c3cnccn3)C[C@@]2(Cc2ccccn2)C(=O)O)ccc1C(C)(C)C | Genotype 1A | replicon | 10–100 µM
C=CC1CC1(NC(=O)[C@@H]1C[C@@H](OC(=O)Nc2ccccc2F)CN1C(=O)[C@@H](NC(=O)OC(C)(C)C)C(C)(C)C)C(=O)NS(=O)(=O)C1CC1 | 1b | replicon | 1–10 µM
O=C(Nc1ccc(C2SC(=Nc3ccc(N4CCOCC4)cc3)N(Cc3ccccn3)C2=O)cc1)[C@H]1CCCN1C(=O)NCc1ccccc1 | - | replicon | <0.1 µM
O=C(O)c1ccc2c(C3CCCCC3)c3n(c2c1)CC(C(=O)NC1CCCC1)Cc1ccccc1-3 | - | replicon | 0.01–1 µM
COc1cc(C(=O)N2[C@@H](c3nccs3)[C@@H](c3cnccn3)C[C@@]2(Cn2cccn2)C(=O)O)ccc1C(C)(C)C | Genotype 1A | replicon | <10 µM
C=CC1CC1(NC(=O)[C@@H]1C[C@@H](OC(=O)Nc2ccccc2C(=O)OCC)CN1C(=O)[C@@H](NC(=O)OC(C)(C)C)C(C)(C)C)C(=O)NS(=O)(=O)C1CC1 | 1b | replicon | <0.1 µM
O=C(Nc1ccc(C2SC(=Nc3cccc(F)c3)N(Cc3ccccc3)C2=O)cc1)[C@H]1CCCN1C(=O)OCc1ccccc1 | - | replicon | 0.1–1 µM
C=CC1CC1(NC(=O)[C@@H]1C[C@@H](OC(=O)[n+]2cccc(C(C)=O)c2)CN1C(=O)[C@@H](NC(=O)OC(C)(C)C)C(C)(C)C)C(=O)NS(=O)(=O)C1CC1 | 1b | replicon | >10 µM
COc1cc(C(=O)N2[C@@H](c3nccs3)[C@@H](c3cnccn3)C[C@@]2(Cc2ccccc2)C(=O)O)ccc1C(C)(C)C | genotype 1b | replicon | 0.1–10 µM
C=CC1CC1(NC(=O)[C@@H]1C[C@@H](OC(=O)Nc2ccccc2C(=O)OCC)CN1C(=O)[C@@H](NC(=O)OCC)C(C)(C)C)C(=O)NS(=O)(=O)C1CC1 | 1b | replicon | 0.1–1 µM
OCc1nnc(-c2ccc(N3CCC(Oc4ccccc4C(F)(F)F)CC3)nn2)o1 | GT1a | PCR | 0.00074 µM
C=CC1CC1(NC(=O)[C@@H]1C[C@@H](OC(=O)Nc2ccccc2-c2ccc(C)o2)CN1C(=O)[C@@H](NC(=O)OC(C)(C)C)C(C)(C)C)C(=O)NS(=O)(=O)C1CC1 | 1b | replicon | <0.1 µM
CN(C)S(=O)(=O)NC(=O)c1ccc2c(C3CCCCC3)c3n(c2c1)CCCc1ncccc1-3 | - | replicon | 0.01–1 µM
COc1cc(C(=O)N2[C@@H](c3ncc(C)s3)[C@@H](c3cnccn3)C[C@@]2(Cc2ccsn2)C(=O)O)ccc1C(C)(C)C | genotype 1b | replicon | <0.1 µM
Cc1nc2c(s1)CCCn1c-2c(C2CCCCC2)c2ccc(C(=O)O)cc21 | - | replicon | >10 µM
O=C(Nc1ccc(C2SC(=Nc3ccc(N4CCOCC4)cc3)N(Cc3ccccn3)C2=O)cc1)[C@H]1CCC(=O)N1C(=O)C(c1ccccc1)c1ccccc1 | - | replicon | 0.1–1 µM
COC(=O)c1ccc2c(C3CCCCC3)c3n(c2c1)CC(NC(=O)N1CCOCC1)Cc1ccccc1-3 | - | replicon | 1–10 µM
COc1cc(C(=O)N2[C@@H](c3ncc(C)s3)[C@@H](c3cnccn3)C[C@@]2(Cc2nccs2)C(=O)O)ccc1C(C)(C)C | Genotype 1A | replicon | <10 µM
COc1ccc2c(c1)C=C(C(=O)N1CCOCC1)Cn1c-2c(C2CCCCC2)c2ccc(C(=O)O)cc21 | - | replicon | 0.01–1 µM
COc1ccc(-c2nc3ccc(NCc4ccc(Cl)c(C(F)(F)F)c4)cc3n(CCNC(C)=O)c2=O)cc1 | GT1b | PCR | 0.012 µM
CN(C)S(=O)(=O)NC(=O)c1ccc2c(C3CCCCC3)c3n(c2c1)C[C@H](C(=O)N1CCOCC1)Cc1ccccc1-3 | - | replicon | 0.01–1 µM
CC(=O)NC1=NN(CCO)c2ncnc3c2c1cn3C1(C)O[C@H](CO)[C@@H](O)[C@H]1O | - | - | 100 µM

Repeating the final 3 entries:

structure,strain or isolate,read by,value
COc1ccc(-c2nc3ccc(NCc4ccc(Cl)c(C(F)(F)F)c4)cc3n(CCNC(C)=O)c2=O)cc1,GT1b,PCR,0.012 µM
CN(C)S(=O)(=O)NC(=O)c1ccc2c(C3CCCCC3)c3n(c2c1)C[C@H](C(=O)N1CCOCC1)Cc1ccccc1-3,-,replicon,0.01–1 µM
CC(=O)NC1=NN(CCO)c2ncnc3c2c1cn3C1(C)O[C@H](CO)[C@@H](O)[C@H]1O,-,-,100 µM

Blank or dashed fields: not listed here. Neighbouring rows are from separate reports. Two numbers with a dash give a range or band.